Source: patent US6143715A (priority 1998, dated 2000)
HELM strings list residues between dots; [ac] is acetyl, [am] amide, other brackets name non-standard units.

Assay: peptide synthesis

Substance | step yield (late stage modification step) [%] | final HPLC purity (late stage modification step) [%] | step yield (coupling step) [%]
PEPTIDE1{[ac].D.[dE].I.V.[Hyp(4-Bn)].[azaNva].[S-NHCHMePh]}$$$$V2.0 | 27 | 98 | –
PEPTIDE1{[ac].D.[dE].I.V.[Hyp(4-Bn)].[Nva].[S-NHCHMePh]}$$$$V2.0 | – | 99.9 | –
PEPTIDE1{[ac].D.[dE].I.V.[Hyp(4-Bn)].[Nva].[NHBn]}$$$$V2.0 | 39 | 98.5 | 89
